Taken from: PubChem BioAssay AID1224833 (University of Georgia, 2016)
The deposit covers about 12,000 reagents; this is an unselected part. About 5,600 of all reagents (46%) count as active. 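Active calls cover z-scores past 1 in both directions, so they include lowered as well as raised rotavirus replication.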

Screen: 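Host factors restraining rotavirus as candidate antiviral genes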 (primary screen)
System: monkey MA104 kidney cells
Reagents: siRNA pool against human genes, 50 nM
Timing: 48 h knock-down before infection; read 24 h after infection
Challenge: infection with rotavirus strain RV3 two days after transfection; infectious dose for this stage not given
Read-out: 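z-score of rotavirus antigen signal per well, from a fluorescent immunoassay, relative to non-targeting control wells on the same plate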
Reading the numbers: z-score vs non-targeting control: higher = more rotavirus replication than with non-targeting control
Active means: In these data the active calls have z-score vs non-targeting control at about -1 or lower, or at about 1 or higher
Calls: active = z-score beyond 1 either way; inactive = z-score within 1 of zero

| gene | z-score vs non-targeting control | outcome |
| --- | --- | --- |
| GINM1 | -1.96 | active |
| PRDX3 | -1.02 | active |
| OPCML | -0.889 | inactive |
| MAP1B | -0.491 | inactive |
| SEC11A | 1.63 | active |
| CPAP | 1.22 | active |
| IGF2BP1 | -0.185 | inactive |
| LGI1 | -2.29 | active |
| EDEM1 | -1.33 | active |
| P2RY4 | -2.15 | active |
| C10orf90 | -0.486 | inactive |
| ADO | -0.999 | inactive |
| SLC71A2 | 1.63 | active |
| ANKRD42 | 2.02 | active |
| DENND1B | 0.615 | inactive |
| LMNB2 | -1.41 | active |
| LRRC46 | 1.3 | active |
| TBC1D4 | 0.76 | inactive |
| NHS | 1.04 | active |
| POLL | 0.654 | inactive |
| MAGEC3 | -0.555 | inactive |
| MRPL42 | -0.382 | inactive |
| PCCB | -1.04 | active |
| RNF148 | 0.565 | inactive |
| TLCD4 | 2.15 | active |
| MRPL9 | -0.735 | inactive |
| CXCL6 | -0.013 | inactive |
| HPS6 | -0.0685 | inactive |
| SAA4 | -1.75 | active |
| ZMYM6 | -0.678 | inactive |
| RAD51AP1 | 3.16 | active |
| NFIB | 0.555 | inactive |
| RFX2 | 0.804 | inactive |
| NAA11 | 2.03 | active |
| OR5D16 | -0.0178 | inactive |
| CHAF1B | 1.12 | active |
| PRR16 | -1.27 | active |
| ASCL1 | 0.638 | inactive |
| SLC46A2 | -1.91 | active |
| GUSB | -1.67 | active |
| TAMM41 | -1.92 | active |
| THADA | 0.765 | inactive |
| UROS | 2.21 | active |
| POLR1F | 0.0256 | inactive |
| MBD4 | 2.05 | active |
| DIXDC1 | -1.24 | active |
| CCDC88B | -0.478 | inactive |
| SF3B5 | -0.21 | inactive |
| UVSSA | 0.689 | inactive |
| DNAJC19 | 1.96 | active |
| RPUSD4 | -0.961 | inactive |
| RPRD1B | -0.106 | inactive |
| KLC1 | 1.21 | active |
| SPAG1 | -0.53 | inactive |
| SPATA12 | 2.1 | active |
| POLR2C | 0.745 | inactive |
| KLK2 | 0.511 | inactive |
| OR14A16 | -0.361 | inactive |
| ANP32A | -0.883 | inactive |
| OR8D2 | -0.206 | inactive |
| BBC3 | -0.903 | inactive |
| EMX1 | -1.46 | active |
| CD247 | 2.98 | active |
| B9D1 | -0.516 | inactive |
| ZDHHC13 | -0.914 | inactive |
| ESX1 | -0.184 | inactive |
| CCDC8 | -1.65 | active |
| OR1L1 | 0.14 | inactive |
| IGIP | -0.971 | inactive |
| CREB3L1 | -0.689 | inactive |
| ZNF467 | -1.08 | active |
| PIGN | 1.67 | active |
| PIGV | -0.985 | inactive |
| ACBD3 | -1.11 | active |
| LIMD1 | 0.502 | inactive |
| GNG3 | 0.185 | inactive |
| ANO3 | -1.41 | active |
| COG1 | -0.708 | inactive |
| LGMN | 0.964 | inactive |
| VTCN1 | -0.386 | inactive |
| MAPK8IP2 | -0.121 | inactive |
| ZNF576 | 0.437 | inactive |
| APLP1 | 0.884 | inactive |
| HBG1 | -0.591 | inactive |
| FNDC8 | -0.804 | inactive |
| RASA3 | -1.57 | active |
| RAPGEF4 | -1.96 | active |
| CPT1C | -1.14 | active |
| GCM2 | -0.736 | inactive |
| NUP188 | -1.18 | active |
| EEF1A1 | 1.12 | active |
| ZNF385C | -1.87 | active |
| TMEM131L | -0.686 | inactive |
| TBP | -1.35 | active |
| EDDM3B | -0.333 | inactive |
| CTAGE1 | -1.12 | active |
| STXBP1 | -0.556 | inactive |
| H4C12 | -1.33 | active |
| TTC39A | -0.241 | inactive |
| RREB1 | -0.739 | inactive |
| FAM177B | 1.63 | active |
| VPS4B | 0.798 | inactive |
| YPEL5 | -0.0225 | inactive |
| ETFDH | -1.62 | active |
| CUBN | -0.712 | inactive |
| NUDT10 | -1.36 | active |
| CABLES2 | -2.43 | active |
| TTC27 | -1.28 | active |
| TOMM20L | 0.941 | inactive |
| WFDC5 | 2.22 | active |
